According to patent US5132414A, “Dideoxynucleoside-5'-phosphonoformic acid compounds” (Dana-Farber Cancer Institute, Inc., priority 1990, dated 1992):

Test system: HIV-1
Assay: Inhibition of HIV-1 replication in Jurkat cells (RT activity), drugs added 4 h before virus (prophylaxis model)
Type: cell-based
Description: The final DMSO concentration in the medium was <0.1%. These solutions in cell growth medium were used in all of the biological tests described below.
In a second evaluation, the compound salt of Example 1, AZT, and PFA were compared as inhibitors of HIV-1 replication in Jurkat cells when added to the cultures 4 h before the virus (i.e., in a prophylaxis model). The drugs were present through the length of the experiment (4 days).

SMILES | therapeutic index (TI), IC50 (antiviral activity)/IC50 (cell growth inhibition) ratio
CCOC(=O)P(=O)(O)OC[C@H]1O[C@@H](n2cc(C)c(=O)[nH]c2=O)C[C@@H]1N=[N+]=[N-] [Example 1, 3'-Azido-3'-deoxy-5'-[P-(ethoxycarbonyl)-P-Hydroxyphosphinyl]thymidine] | substantially more favorable
Cc1cn([C@H]2C[C@H](N=[N+]=[N-])[C@@H](CO)O2)c(=O)[nH]c1=O [AZT, 3'-azidothymidine, reference compound] | approximately four-log
